The target in the assay is T1, TrkA (transfected expression construct).
T1 construct: also called TricA
The experiment in a line: co-immunoprecipitation with anti-HA, blot anti-TrkA (RTA), NNR5 cells.

B1: HA-tagged Karet(228-453), C-terminal truncation mutant of mouse Karet (other)
chain: FLDRAIFDGASTPTHHLSLHSDDSSTKVDMKDSYDADASTFCFPDSGDVGGLPPLPFCMQTSPHSKTVSESELSTSATELLQDYMLTLRTKLSSQEIQQFAALLHEYRNGASIHEFCISLRQLYGDSRKFLLLGLRPFIPEKDSQHFENFLETIGVKDGRGIITDSFGRHRRALSTTSTSTINGNRTTGSPDDRSAPSEGDEWDRMISDISSDIEALGCSMDQDSA
notes: also called non-PTB; Ha non PTB; not shown: HA tag
With B1, the binding result was “no binding”.
